According to the supplement of paper PMC9931576:
Substitutions are numbered along the chain they refer to. Human monoclonal antibodies against the spike receptor-binding domain (heavy:light variable regions). IC50 against pseudoviruses bearing the spike of naturally observed variants; lower = stronger; >10 µg/ml means not reached at the top dose. No active / inactive call. The stated detection limit is 0.0005 µg/ml; values near or below 0.001 µg/ml lie at the floor of the assay.

What was measured:
Assay in all cases: pseudovirus neutralization IC50; higher = weaker neutralization
[1] = target: SARS-CoV-2 Omicron BA.1 spike pseudovirus
Protocol: (§1)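 Single-round VSV luciferase pseudovirus mixed with antibody dilutions for 1 h and put on Huh-7 cells for about a day; IC50 from the dose curve.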

[2] = target: SARS-CoV-2 Omicron BA.2 spike pseudovirus
Protocol: as §1

[3] = target: SARS-CoV-2 Omicron BA.2.75 spike pseudovirus
Protocol: as §1

[4] = target: SARS-CoV-2 Omicron BA.5 spike pseudovirus
Protocol: as §1

[5] = target: SARS-CoV-2 early D614G spike pseudovirus
Protocol: as §1

[6] = target: SARS-CoV-2 Omicron BQ.1.1 spike pseudovirus
Protocol: as §1

[7] = target: SARS-CoV-2 Omicron XBB spike pseudovirus
Protocol: as §1

B1: XGv-235 (protein)
chain 1: EVQLVQSGAEVKKPGESLKISCKASGYSFISHWIAWVRQKPGKGLEWMGIIYPGDSDTRYSPSFQGQVTISVDKSIGTAYLQWRSLKSSDTAIYYCARGPNLYNWFDTWGQGTLVTVSS
chain 2: QSVLTQPPSASGTPGQRVTISCSGSSSNIGSNTVNWYQQLPGTAPKLLIYNNGQRPSGVPDRFSGSKSGTSASLAISGLQSEDEADFYCAAWDDSLNALVFGGGTRVTV
pseudovirus neutralization IC50 [1]: 0.192 µg/mL
pseudovirus neutralization IC50 [2]: 0.0654 µg/mL
pseudovirus neutralization IC50 [3]: 0.293 µg/mL
pseudovirus neutralization IC50 [4]: 0.257 µg/mL
pseudovirus neutralization IC50 [5]: 0.704 µg/mL

B2: XGv-179 (protein)
chain 1: QVQLQESGPGLVKPSETLSLTCSVSGDSMSGYYWSWIRQPPGKGLEWIGYIYYSGSTKYTPSLKSRVTISVDTSKNQFSLKLNSVTAADTAVYYCAKEGTQGYFDSWGLGALVTVSS
chain 2: EIVLTQSPGTLSLSPGERATLSCRASQSLYSRYLAWYQQNPGQAPRLLIYGASSRATGIPDRFSGSGSGTDFTLTISRLEPEDFAVYYCHQYGGSLPTFGGGTKVEIK
pseudovirus neutralization IC50 [1]: 2.01 µg/mL
pseudovirus neutralization IC50 [2]: 1.82 µg/mL
pseudovirus neutralization IC50 [3]: 1.5 µg/mL
pseudovirus neutralization IC50 [4]: 0.991 µg/mL
pseudovirus neutralization IC50 [6]: > 10 µg/mL
pseudovirus neutralization IC50 [7]: > 10 µg/mL
pseudovirus neutralization IC50 [5]: 1.12 µg/mL

B3: XGv-052 (protein)
chain 1: QVQLVQSGAEVKKPGSSVKVSCKASGGTFSNYALSWVRQAPGQGLEWMGGIIPIFGTTNYAQNFQGRVTITADESTSTAYMELSSLRSEDTAVYYCARLDGYSFGHNRYYQDGMDDWGQGTTVTVSS
chain 2: DIQMTQSPSSLSASVGDRVTITCRASQAIRSDLGWYQQKPGKAPKCLIYAASTLQSGVPSRFSGSGSGTEFTLTISSLQPEDFATYYCLQQNIYPRTFGQGTKVEI
pseudovirus neutralization IC50 [1]: 0.0145 µg/mL
pseudovirus neutralization IC50 [2]: 0.00956 µg/mL
pseudovirus neutralization IC50 [3]: 0.00619 µg/mL
pseudovirus neutralization IC50 [4]: 0.828 µg/mL
pseudovirus neutralization IC50 [6]: 1.02 µg/mL
pseudovirus neutralization IC50 [7]: > 10 µg/mL
pseudovirus neutralization IC50 [5]: 0.0112 µg/mL

B4: XGv-053 (protein)
chain 1: B3 chain 1 with N31S, S35T, N63K, S84T
chain 2: DIQMTQSPSSLSASVGDRVTITCRASQDIRNDLGWYQQKPGKAPKCLIYAASTLQSGVPSRFSGSGSGTEFTLTISSLQPEDFATYYCLQQNIYPRTFGQGTKVEIK
pseudovirus neutralization IC50 [1]: 0.617 µg/mL
pseudovirus neutralization IC50 [2]: 0.00568 µg/mL
pseudovirus neutralization IC50 [3]: 0.0134 µg/mL
pseudovirus neutralization IC50 [4]: 4.31 µg/mL
pseudovirus neutralization IC50 [6]: > 10 µg/mL
pseudovirus neutralization IC50 [7]: 6.73 µg/mL
pseudovirus neutralization IC50 [5]: 0.0325 µg/mL

B5: XGv-072 (protein)
chain 1: QVQLVESGGGVVQPGRSLRLSCAASGFTFSNYGMHWVRQAPGKGLEWVALIWYDGTNKYYADSVKGRFTISRDNSKNTVYLQMNSLRAEDTAVYYCARDYEITMAAPDYWGQGTLVTVSS
chain 2: DVVMTQSPLSLPVTLGQPASISCRSSQSLVSSDGNTYLNWFQQRPGQSPRRLIYKVSNRDSGVPDRFSGSGSGTDFTLKISRVEAEDVGIYYCMQGSHWPPTFGGGTKVEIK
pseudovirus neutralization IC50 [1]: 2.05 µg/mL
pseudovirus neutralization IC50 [2]: 2.08 µg/mL
pseudovirus neutralization IC50 [3]: 1.55 µg/mL
pseudovirus neutralization IC50 [4]: 2.15 µg/mL
pseudovirus neutralization IC50 [6]: > 10 µg/mL
pseudovirus neutralization IC50 [7]: 5.11 µg/mL
pseudovirus neutralization IC50 [5]: 2.15 µg/mL

B6: XGv-155 (protein)
chain 1: QVQLVQSGAEVKRPGSSVKVSCKASGGTFRNYAINWVRQAPGQGLEWMGGIIRLFDRTDYAQKFQGRITIIADEDTNTAYMELRSLRSEDTGVYYCARGRALTRGILATMTVDVWGQGTTVTVSS
chain 2: DIVMTQSPDSLAVSLGERATINCKSSQSLLYSSNNKNFLGWSQQKPGQPPKLLIYWASTRESGVPDRFSGSGSGTDFTLTISSLQPEDVAIYYCHQYYSIPLTFGGGTKVEIK
pseudovirus neutralization IC50 [1]: 1.43 µg/mL
pseudovirus neutralization IC50 [2]: 1.2 µg/mL
pseudovirus neutralization IC50 [3]: 1.78 µg/mL
pseudovirus neutralization IC50 [5]: 0.0255 µg/mL

B7: XGv-097 (protein)
chain 1: QVQLVQSGSELKKPGASVKVSCKASGYIFTSPAMNWVRQAPGQGLEWMGWINTNTGNPTYAQGFTGRFVFSLDTSVSTAYLQISSLKAEDTAVYYCARGMTTVVTYYYYGMDVWGQGTTVTVSS
chain 2: DIQMTQSPSSLSASVGDRVTITCRASQGISSWLAWYQQKPGKAPKLLIYAASSLQSGVPSRFSGSGSGTDFTLTISSLQPEDFATYYCQQANSFPPTFGQGTKVEIK
pseudovirus neutralization IC50 [1]: 1.27 µg/mL
pseudovirus neutralization IC50 [2]: 1.69 µg/mL
pseudovirus neutralization IC50 [3]: 1.79 µg/mL
pseudovirus neutralization IC50 [4]: 1.19 µg/mL
pseudovirus neutralization IC50 [6]: 1.44 µg/mL
pseudovirus neutralization IC50 [7]: > 10 µg/mL
pseudovirus neutralization IC50 [5]: 0.0551 µg/mL

B8: XGv-20 (protein)
chain 1: QVQLVESGGGVVQPGRSLRLSCPASGFTFSIYGIHWVRQAPGKGLEWVAAISYDGSNEYYADSVKGRFTISRDNSKNTLFLQMNRLKAEDTAMYFCAKALFTGWFGESPLDYWGRGTLVTVSS
chain 2: EIVMTQSPATLSLSPGERATLSCRASQSISSNLAWYQQKPGQAPRLLIYGASTRATGIPARFSGSGSGTEFTLTISSLQSEDFAIYYCQHYNNWPPYTFGQGTKLEIK
pseudovirus neutralization IC50 [1]: 2.74 µg/mL
pseudovirus neutralization IC50 [2]: 1.93 µg/mL
pseudovirus neutralization IC50 [3]: 5.09 µg/mL
pseudovirus neutralization IC50 [4]: 1.93 µg/mL
pseudovirus neutralization IC50 [6]: > 10 µg/mL
pseudovirus neutralization IC50 [7]: > 10 µg/mL
pseudovirus neutralization IC50 [5]: 2.76 µg/mL

B9: XGv-199 (protein)
chain 1: QVQLQESGPGLVRPSQTLSLSCTVSGSSISGGGFSWSWVRQHPGKGLEWIAYISYSGSTYYNPSLKSRLTISRDTSKNQFFLRVNSVYAADTAVYYCARIPVNGWNNWFDPWGQGTLVTVSS
chain 2: SYVLTQPPSVSVAPGKTASITCGGNNIGSKSVHWYQRKPGQAPVLVIYYDGDRPSGIPERFSGSNSGNTATLTISRVEAGDEADYYCQVWDSTTDHPVFGGGTKLTVL
pseudovirus neutralization IC50 [1]: 0.229 µg/mL
pseudovirus neutralization IC50 [2]: 0.449 µg/mL
pseudovirus neutralization IC50 [3]: 0.664 µg/mL
pseudovirus neutralization IC50 [4]: 0.532 µg/mL
pseudovirus neutralization IC50 [6]: > 10 µg/mL
pseudovirus neutralization IC50 [7]: > 10 µg/mL
pseudovirus neutralization IC50 [5]: 0.182 µg/mL

B10: XGv-214 (protein)
chain 1: QVQLVQSGAEVKKPGASVRVSCKASGYILTRFGIGWVRQAPGQGLEWMGWISANNGTTTYTQKLQGRVTMTTDIATSTAYMELRSLRSDDTAVYYCARGTDWGIGWFDPWGQGTLVTVSS
chain 2: B9 chain 2 with G15E, T17P, S19R, R37Q, T93N, T94S, H96S, P97V
pseudovirus neutralization IC50 [1]: 2.69 µg/mL
pseudovirus neutralization IC50 [2]: 2.88 µg/mL
pseudovirus neutralization IC50 [3]: 2.15 µg/mL
pseudovirus neutralization IC50 [4]: > 10 µg/mL
pseudovirus neutralization IC50 [6]: > 10 µg/mL
pseudovirus neutralization IC50 [7]: > 10 µg/mL
pseudovirus neutralization IC50 [5]: 0.134 µg/mL

B11: XGv-19 (protein)
chain 1: EVQLVESGGGLVQPGGSLRLSCGASGFSLSNYDIHWVRQATGEGLEWVSCVGTYGDTYYSDSVKGRFTISRENARNSLYLQMNSLRLGDTAVYFCTRGSVDPTTNWYFDLWGRGTLVTVSS
chain 2: DIQMTQSPSSLSASVGDRVTITCRASQGIRNFLAWYQQKPGKAPKLLLSAASRLESGVPSRFSGSGSGTDYTLTISSLQPEDFATYYCQQYYSSPPITFAQGTRLEIK
pseudovirus neutralization IC50 [1]: > 10 µg/mL
pseudovirus neutralization IC50 [2]: > 10 µg/mL
pseudovirus neutralization IC50 [3]: > 10 µg/mL
pseudovirus neutralization IC50 [4]: > 10 µg/mL
pseudovirus neutralization IC50 [6]: > 10 µg/mL
pseudovirus neutralization IC50 [7]: > 10 µg/mL
pseudovirus neutralization IC50 [5]: 6.23 µg/mL

B12: XGv-159 (protein)
chain 1: QVQLVQSGAEMKKPGASVKVSCKASGYTFSNYGINWVRQAPGRGLEWMGWISGYNGNTKYAQKLQGRVTMTTDTSTTTAYMELRSLRSDDTAVYYCARTLGLWFGVDNWGQGTLVTVSS
chain 2: NFMLTQPHSVSESPGKTVTISCTGSSGSIASNYVQWYQQRPGSAPTTVIYEDKQRPSGVPDRFSGSIDSSSNSASLTISGLKTEDESDYYCQSYDGSSVIFGGGTKLTVL
pseudovirus neutralization IC50 [1]: > 10 µg/mL
pseudovirus neutralization IC50 [2]: > 10 µg/mL
pseudovirus neutralization IC50 [3]: > 10 µg/mL
pseudovirus neutralization IC50 [4]: > 10 µg/mL
pseudovirus neutralization IC50 [6]: > 10 µg/mL
pseudovirus neutralization IC50 [7]: > 10 µg/mL
pseudovirus neutralization IC50 [5]: 0.64 µg/mL

B13: XGv-191 (protein)
chain 1: QVQLVQSGAEVKKPGSSVKVSCKTSGGTFISQVINWVRQAPGQGLEWMGRIIPVVGTPTYAQKFQGRVTITADKSTNTAYMELRSLRSGDTAVYYCASVSESTDTSGYSLGYWGQGTQVTVSS
chain 2: DIVMTQSPLSLPVTPGEPASISCRSSQSLLHSNGHNYLDWYLQKPGQSPQLVIYMGSNRASGVPDRFSGSGSGTDFTLKISRVEAEDVGVYYCMQALQTPLTFGGGTKVEIK
pseudovirus neutralization IC50 [1]: 9.13 µg/mL
pseudovirus neutralization IC50 [2]: 7.29 µg/mL
pseudovirus neutralization IC50 [3]: > 10 µg/mL
pseudovirus neutralization IC50 [4]: > 10 µg/mL
pseudovirus neutralization IC50 [6]: > 10 µg/mL
pseudovirus neutralization IC50 [7]: > 10 µg/mL
pseudovirus neutralization IC50 [5]: 0.017 µg/mL
